Laboratory results: PubChem BioAssay AID602399 (Sanford-Burnham Center for Chemical Genomics, 2012)
The entries are a selection whose mix differs from that of the whole data set. The source made the active and inactive calls. Cut-off read from the data, not from the text of the source: active = inhibition above about 26%; inactive = the rest.

tested on: Nicotinate-nucleotide adenylyltransferase NadD (Staphylococcus aureus N315); assay: S. aureus NadD enzyme activity blockers – biochemical, colorimetric, uHTS, primary screen (AID 602399); details: purified NadD enzyme, colorimetric absorbance read-out; at 20 µM; stronger effect = higher value

Row | Structure (SMILES) | inhibition
1 | COC(=O)C1(C)COP(=O)(N2CCCC2)OC1 (stereo not drawn) | inactive: 5.49%
2 | COP1(=S)c2c(C)nn(CCC#N)c2N=C(c2ccc(F)cc2)N1C (stereo not drawn) | inactive: -2.75%
3 | O=C(Nc1ccncc1[N+](=O)[O-])c1ccc([N+](=O)[O-])cc1[N+](=O)[O-] | inactive: -0.18%
4 | O=C(COc1ccccc1)OC1CN2CCC1CC2 (stereo not drawn) | inactive: -3.9%
5 | O=C(O)C(=O)c1ccc(N(CCCl)CCCl)cc1 | inactive: -0.152%
6 | COc1ccc(N/C(=N/P(=O)(N2CCOCC2)N2CCOCC2)N2CCOCC2)cc1 | inactive: -6.12%
7 | O=[N+]([O-])c1cc(Oc2ccc([N+](=O)[O-])cc2C(F)(F)F)cc([N+](=O)[O-])c1 | inactive: -1.78%
8 | Cc1cc(=O)[nH]c(N[N+](=O)[O-])n1 | inactive: 2.22%
9 | O=C(OC1CN2CCC1CC2)C12CC3CC(CC(C3)C1)C2 (stereo not drawn) | inactive: -4.05%
10 | Cc1c2c(nc3ccccc13)SC(C(Cl)Cl)C2 (stereo not drawn) | inactive: 2.03%
11 | COc1cc(I)ccc1[As](=O)(O)O | inactive: -3.57%
12 | COc1ccc2nc(NP(=O)(c3ccccc3)c3ccccc3)sc2c1 | inactive: 2.2%
13 | O=P1(N(CCCl)CCCl)Nc2ccccc2N1 | inactive: -23.6%
14 | O=P1(N(CCCl)CCCl)OCCCN1CCCl (stereo not drawn) | inactive: 0.972%
15 | COC(=O)C1(C)COP(=O)(N2CCCCCC2)OC1 (stereo not drawn) | inactive: -1.78%
16 | CC(C)c1ccc(OP(=O)(Nc2ccccn2)Oc2ccccc2F)cc1 (stereo not drawn) | inactive: 1.55%
17 | ClCCSc1nnc(-c2cccnc2)o1 | inactive: 0.738%
18 | O=[N+]([O-])c1cc([N+](=O)[O-])c(-c2ccn[nH]2)s1 | inactive: -3.42%
19 | CC(C)NC(=O)NP(=O)(Oc1ccccc1)Oc1ccccc1 | inactive: -0.503%
20 | O=C(OC1CN2CCC1CC2)c1cccc2[nH]cnc12 (stereo not drawn) | inactive: -6.88%
21 | CCN(CC)C(=S)SC(NC=O)C(Cl)(Cl)Cl (stereo not drawn) | inactive: 4.52%
22 | O=[N+]([O-])c1ccc(-c2cc([N+](=O)[O-])c(O)c([N+](=O)[O-])c2)cc1 | inactive: 3.07%
23 | COc1cc(C(=O)NCC2(N3CCOCC3)CCCCC2)ccc1OCC(C)C | inactive: -7.01%
24 | O=[As](O)(c1ccc(O)cc1)c1ccccc1O | inactive: -0.609%
25 | C[As](=O)(O)c1cccc(C(=O)O)c1 | inactive: -3.82%
26 | Cc1ccc2nc3c(c(C)c2c1)CC(C(Cl)Cl)S3 (stereo not drawn) | inactive: 9.05%
27 | [N-]=[N+]=NC1CCCCC1NC(=O)c1cc([N+](=O)[O-])cc([N+](=O)[O-])c1 (stereo not drawn) | inactive: -0.652%
28 | Cc1ccc(OP(=O)(Nc2ccc([N+](=O)[O-])cn2)Oc2ccc(C)cc2)cc1 | inactive: -4.14%
